Test results reported in publication PMC8865542 (2021).

Biological target: HBoV1 NS[…] with Flag and His tags (human bocavirus 1 (HBoV1))
Assay: BLI

Row | Binder | koff
1 | Ku70 domain A (α/β domain) with Strep-tag II (domain or fragment) MSGWESYYKTEGDEEAEEEQEENLEASGDYKYSGRDSLIFLVDASKAMFESQSEDELTPFDMSIQCIQSVYISKIISSDRDLLAVVFYGTEKDKNSVNFKNIYVLQELDNPGAKRILELDQFKGQQGQKRFQDMMGHGSDYSLSEVLWVCANLFSDVQFKMSHKRIMLFTNEDNPHGNDSAKASRARTKAGDLRDTGIFLDLMHLKKPGGFDISLFYRDIISIAEDEDLRVHFEESSKLEDLLRKVRAKE | 0.000548 s⁻¹
2 | Ku70 with Strep-tag II (natural protein) MSGWESYYKTEGDEEAEEEQEENLEASGDYKYSGRDSLIFLVDASKAMFESQSEDELTPFDMSIQCIQSVYISKIISSDRDLLAVVFYGTEKDKNSVNFKNIYVLQELDNPGAKRILELDQFKGQQGQKRFQDMMGHGSDYSLSEVLWVCANLFSDVQFKMSHKRIMLFTNEDNPHGNDSAKASRARTKAGDLRDTGIFLDLMHLKKPGGFDISLFYRDIISIAEDEDLRVHFEESSKLEDLLRKVRAKETRKRALSRLKLKLNKDIVISVGIYNLVQKALKPPPIKLYRETNEPVKTKTRTFNTSTGGLLLPSDTKRSQIYGSRQIILEKEETEELKRFDDPGLMLMGFKPLVLLKKHHYLRPSLFVYPEESLVIGSSTLFSALLIKCLEKEVAALCRYTPRRNIPPYFVALVPQEEELDDQKIQVTPPGFQLVFLPFADDKRKMPFTEKIMATPEQVGKMKAIVEKLRFTYRSDSFENPVLQQHFRNLEALALDLMEPEQAVDLTLPKVEAMNKRLGSLVDEFKELVYPPDYNPEGKVTKRKHDNEGSGSKRPKVEYSEEELKTHISKGTLGKFTVPMLKEACRAYGLKSGLKKQELLEALTKHFQD | 0.000459 s⁻¹
